Compound potency records, mixed from different reports. Data source: NIAID ChemDB in PubChem.

Common to all: whole-cell or culture tests; species: Vaccinia virus; measure: EC50

ECn: concentration that inhibits the pathogen or its effect by n%. An empty or dashed field is not shown. Conditions beyond the fields shown may differ between rows. Two numbers with a dash give a range or band.

smiles	strain or isolate	cells	result
CCc1cn([C@H]2C[C@H](O)[C@@H](CO)O2)c(=O)[nH]c1=O		PRK	1 µg/mL
Nc1ccn(C[C@H]2COP(=O)(O)CO2)c(=O)n1	Elstree	HFF	41.6 µM
NC(=O)c1csc([C@@H]2O[C@H](CO)[C@@H](O)[C@H]2O)n1	Elstree	HeLa	60 µg/mL
Nc1ccn(C[C@@H](CO)OCP(=O)(O)O)c(=O)n1		VERO	74 µM
CCCCOC(=O)[C@H](C)NP1(=O)CO[C@@H](Cn2ccc(N)nc2=O)CO1	Copenhagen	HFF	4.6 µM
O=c1[nH]cnc2c1ncn2C[C@@H](CO)OCP(=O)(O)O		Primary rabbit kidney cells	>400 µg/mL
Nc1ncnc2c1ncn2C[C@H](O)CO		E6SM	100 µg/mL
C[C@H](O)[C@@H]1C[C@H](CCn2nnc3c(N)ncnc32)C1(C)C		E6SM	4 µg/mL
Nc1nc(NC2CC2)c2ncn(CCOCP(=O)(O)O)c2n1	NYC	HFF	12 µM
Nc1ccn(C[C@@H](CO)OCP(=O)(O)O)c(=O)n1		VERO	18 µg/mL
Clc1cc2nc[nH]c2cc1Cl		E6SM	>10 µg/mL
Nc1nccc2c1ncn2[C@@H]1C=C(CO)[C@@H](O)[C@H]1O		VERO	0.03–0.3 µg/mL
C[C@H](O)[C@@H]1C[C@H](Cn2cnc3c(=O)[nH]cnc32)C1(C)C		E6SM	>300 µg/mL
CC(C)[Si]1(C(C)C)OC[C@H]2O[C@@H](n3cnc4cc(Cl)c(Cl)cc43)[C@@H](O)[C@H]2O[Si](C(C)C)(C(C)C)O1		E6SM	>100 µg/mL
Nc1nc(N)c2ncn(CCOCP(=O)(O)O)c2n1		Primary rabbit kidney cells	20 µg/mL
Nc1ncnc2c1ncn2[C@H]1[C@H](O)[C@H](O)[C@@H](CO)[C@H]1F		L929	0.2 µg/mL
Cn1cc(NC(=O)c2cc(NC(=O)CCCC(=O)Nc3cc(C(=O)Nc4cc(C(=O)NCCC(N)=[NH2+])n(C)c4)n(C)c3)cn2C)cc1C(=O)NCCC(N)=[NH2+]		VERO	110 µg/mL
Nc1ccn(C[C@@H](CO)OCP(=O)(O)O)c(=O)n1	NYC	HFF	36 µM
C[C@H](O)[C@@H]1C[C@H](CCn2cnc3c(=O)[nH]cnc32)C1(C)C		E6SM	>100 µg/mL
Nc1ncnc2c1ncn2C[C@H]1COP(=O)(O)CO1		Primary rabbit kidney cells	0.7 µg/mL
OC[C@H]1O[C@@H](n2cnc3cc(Cl)c(Cl)cc32)[C@H](O)[C@@H]1O		E6SM	>10 µg/mL
Nc1ccn([C@@H]2C=C(CO)[C@@H](O)[C@H]2O)c(=O)n1		PRK	0.02 µg/mL
Nc1ncnc2c1ncn2C[C@@H](CO)OCP(=O)(O)O	WR	HFF	7.6 µM
OC[C@H]1O[C@@H](n2cnc3cc(Cl)c(Cl)cc32)[C@H](O)[C@H]1O		E6SM	>4 µg/mL
Cc1cn([C@H]2C=C[C@@H](CO)O2)c(=O)[nH]c1=O		HFF	>446 µM
C=CCNc1nc(N)nc2c1ncn2CCOCP(=O)(O)O	WR	HFF	23 µM
Nc1ncnc2c1ccn2[C@@H]1O[C@H](CO)[C@H](O)[C@H]1O		PRK	0.3 µg/mL
Cc1cn([C@H]2C[C@H](N=[N+]=[N-])[C@@H](CO)O2)c(=O)[nH]c1=O		HFF	>374 µM
CC1(C)[C@H](CO)C[C@@H]1Cn1cnc2c(N)nc(N)nc21		E6SM	400 µg/mL
Nc1nc2c(ncn2CCOCP(=O)(O)O)c(=O)[nH]1		Primary rabbit kidney cells	10 µg/mL
Nc1ccn(C[C@@H](CO)OCP(=O)(O)O)c(=O)n1	NYC	HFF	10.1 µM
Nc1nccc2c1ncn2[C@@H]1O[C@H](CO)[C@@H](O)[C@H]1O		PRK	7 µg/mL
Nc1ccn(C[C@@H](CO)OCP(=O)(O)O)c(=O)n1		Primary rabbit kidney cells	4 µg/mL
Nc1nc2c(ncn2CCOCP(=O)(O)O)c(=O)[nH]1		Primary rabbit kidney cells	10 µg/mL
CCCCCCCCCCCCCCCCCCOCCOP1(=O)CO[C@@H](Cn2ccc(N)nc2=O)CO1	Elstree	HFF	0.5 µM
OC[C@H]1O[C@H](n2cnc3cc(Cl)c(Cl)cc32)[C@@H](O)[C@H]1O		E6SM	>200 µg/mL
NC(=O)c1ncn([C@@H]2O[C@H](CO)[C@@H](O)[C@H]2O)c1F		PRK	100 µg/mL
O=c1[nH]cnc2c1ncn2CCOCP(=O)(O)O		Primary rabbit kidney cells	>400 µg/mL
O=c1[nH]c(=O)n([C@@H]2O[C@H](CO)[C@@H](O)[C@@H]2F)cc1I		HFF	1.5 µM

Repeating the final 4 entries:

smiles	strain or isolate	cells	result
OC[C@H]1O[C@H](n2cnc3cc(Cl)c(Cl)cc32)[C@@H](O)[C@H]1O		E6SM	>200 µg/mL
NC(=O)c1ncn([C@@H]2O[C@H](CO)[C@@H](O)[C@H]2O)c1F		PRK	100 µg/mL
O=c1[nH]cnc2c1ncn2CCOCP(=O)(O)O		Primary rabbit kidney cells	>400 µg/mL
O=c1[nH]c(=O)n([C@@H]2O[C@H](CO)[C@@H](O)[C@@H]2F)cc1I		HFF	1.5 µM